For 28 compounds, IC50 results are on record in ChEMBL document CHEMBL5729349 (2022).

This test can be described thus: Inhibition of Authentic Filovirus Infections in Cell Culture Assays: The authentic filoviruses Ebola virus/H. sapiens-tc/COD/1995/Kikwit-9510621 (EBOV/Kik-9510621; ‘EBOV-Zaire 1995’) (Jahrling et al., J. Infect. Dis., 179 Suppl 1:S224-234 (1999)), Sudan virus/H. sapiens-gp-tc/SDN/1976/Boniface-USAMRIID 111808 (SUDV/Bon-USAMRIID 111808; ‘SUDV-Boniface 1976’) (Anonymous, Ebola haemorrhagic fever in.
In general, IC50 refers to the concentration that inhibits the measured activity by half. The compound `O=[N+]([O-])c1ccc(N2CCN(Cc3ccncc3)CC2)cc1NC(c1ccccc1)c1ccccc1` yielded an IC50 of 1700 nM. Compound `O=[N+]([O-])c1ccc(N2CCN(Cc3ccoc3)CC2)cc1NC(c1ccccc1)c1ccccc1` came in with an IC50 of more than 20000 nM. In turn, `C/C=C/CN1CCN(c2ccc([N+](=O)[O-])c(NC(c3ccccc3)c3ccccc3)c2)CC1` had an IC50 of 1700 nM. `CN1CCC(N(C)c2ccc([N+](=O)[O-])c(NC(c3ccccc3)c3ccccc3)c2)CC1` gave an IC50 of 10300 nM.

`O=[N+]([O-])c1ccc(N2CCN(Cc3ccccc3)CC2)cc1NC(c1ccccc1)c1ccccc1` showed an IC50 of 4500 nM. In turn, `CCCCN1CCN(c2ccc([N+](=O)[O-])c(NC(c3ccccc3)c3ccccc3)c2)CC1` displayed an IC50 of 2800 nM. `c1ccc(C(c2ccccc2)n2cnc3ccc(N4CCN5CCCCC5C4)cc32)cc1` (stereo not drawn) had an IC50 of 1800 nM. Next, `O=[N+]([O-])c1ccc(N2CCN(C3CCc4ccccc4C3)CC2)cc1NC(c1ccccc1)c1ccccc1` (stereo not drawn): 1400 nM; `CN1CCN(c2ccc3[nH]c(=O)n(C(c4ccccc4)c4ccccc4)c3c2)CC1`: more than 20000 nM; `CN1CCC(N2CCN(c3ccc([N+](=O)[O-])c(NC(c4ccccc4)c4ccccc4)c3)CC2)CC1`: more than 20000 nM. Next, `CCN1CCN(c2ccc([N+](=O)[O-])c(NC(c3ccccc3)c3ccccc3)c2)CC1`: 1100 nM; `Cc1ccccc1C(Nc1cc(N2CCN(C)CC2)ccc1[N+](=O)[O-])c1ccccc1` (stereo not drawn): 780 nM; `CN1CCN(c2cc(NC(c3ccccc3)c3ccccc3)cc(OC(F)(F)F)c2)CC1`: 3100 nM.

Consider `O=[N+]([O-])c1ccc(N2CCN(Cc3ccco3)CC2)cc1NC(c1ccccc1)c1ccccc1`, for which the IC50 came out at 1200 nM. Regarding `CN1CCN(c2ccc(C(F)(F)F)c(NC(c3ccccc3)c3ccccc3)c2)CC1`, the IC50 is 2500 nM.

Turning to `[N-]=[N+]=Nc1ccc(CN2CCN(c3ccc([N+](=O)[O-])c(NC(c4ccccc4)c4ccccc4)c3)CC2)cc1`, half-maximal inhibition (IC50) was put at 600 nM. Regarding `COc1ccccc1C(Nc1cc(N2CCN(C)CC2)ccc1[N+](=O)[O-])c1ccccc1` (stereo not drawn), the IC50 was determined as 3000 nM. `CC(=O)N1CCN(c2ccc([N+](=O)[O-])c(NC(c3ccccc3)c3ccccc3)c2)CC1` returned an IC50 of 2000 nM.

Compound `CN1CCN(c2ccc([N+](=O)[O-])c(NC(c3ccccc3)c3ccc(Cl)cc3)c2)CC1` (stereo not drawn) showed a 50% inhibitory concentration (IC50) of more than 20000 nM. `CN1CCN(c2cccc(NC(c3ccccc3)c3ccccc3)c2)CC1` registered an IC50 of 1600 nM.

Compound `CN1CCN(c2ccc([N+](=O)[O-])c(NCc3ccccc3)c2)CC1` returned an IC50 of 15000 nM. For `CN1CCN(c2ccc3ncn(C(c4ccccc4)c4ccccc4)c3c2)CC1`, the half-inhibitory concentration (IC50) was more than 20000 nM. For `CN1CCN(c2cc(NC(c3ccccc3)c3ccccc3)cc(C(F)(F)F)c2)CC1`, inhibition was half-maximal at 900 nM (IC50).

Consider `O=[N+]([O-])c1ccc(N2CCN(C3Cc4ccccc4C3)CC2)cc1NC(c1ccccc1)c1ccccc1`, for which inhibition was half-maximal at 8000 nM (IC50). Compound `O=[N+]([O-])c1ccc(N2CCN(CC3CC3)CC2)cc1NC(c1ccccc1)c1ccccc1` came in with an IC50 of less than 600 nM. `O=[N+]([O-])c1ccc(N2CCN(C3CCC3)CC2)cc1NC(c1ccccc1)c1ccccc1` had an IC50 of 730 nM. On to `CN1CCN(c2ccc3ncn(C(C)(C)c4ccccc4)c3c2)CC1`, for which inhibition was half-maximal at 530 nM (IC50). The compound `O=[N+]([O-])c1ccc(N2CCN(Cc3ccccn3)CC2)cc1NC(c1ccccc1)c1ccccc1` returned an IC50 of 1900 nM.
